# Experimental data: publication PMC10400593, “Molecular insights into Spindlin1-HBx interplay and its impact on HBV transcription from cccDNA minichromosome” (Nature Communications, 2023)
# Target: human Spindlin1_50–262 (Homo sapiens, UniProt Q9Y657)
# Experiment: ITC
substance,measurement,value
HBx2-21 L18R peptide,Ka,31100 M⁻¹
same,stoichiometry N,1.1
